Results of unrelated studies side by side (data: NIAID ChemDB).

All rows: whole-cell or culture tests; organism: Human cytomegalovirus

ECn: concentration that inhibits the pathogen or its effect by n%.

compound,strain or isolate,cell line,method,conditions,read-out,dose,result
Cc1nc(N2CCOC[C@@H]2C)nc(-n2ccnc2)c1[N+](=O)[O-],Laboratory and clinical isolates,,,,MIC,,0.3–1 µg/mL
Cn1cc(C(=O)NCc2ccc(Cl)cc2)c(=O)c2cc(CN3CCOCC3)ccc21,LY,HFF,plaque count,,inhibition,6.4 µM,90%
CCCCCCCCCCCCCCCCCCOCCOP1(=O)CO[C@@H](Cn2ccc(N)nc2=O)CO1,C9209/1-4-4 drug-resistant mutant,MRC-5,plaque count,,EC50,,0.0045 µM
Oc1ccc(-c2nc(-c3ccc(F)cc3)c(-c3ccncc3)[nH]2)cc1,TOWNE,HEL,plaque count,,inhibition,100 µM,>95%
CN(Cc1cnc2nc(N)nc(N)c2n1)c1ccc(C(=O)N[C@@H](CCC(=O)O)C(=O)O)cc1,TOWNE,MRC-5,,24 h,inhibition,0.2 µM,45%
Nc1ccn(C[C@@H](CO)OCP(=O)(O)O)c(=O)n1,C9209/1-4-4 drug-resistant mutant,MRC-5,plaque count,,EC50,,2.3 µM
O=P1(O)OCC2O[C@@H](n3cnc4c(=S)nc[nH]c43)[C@H](O)C2O1,,,,,MIC,,3.2–100 µg/mL
NC(=S)N/N=C/c1ncnc2nc[nH]c12,,WI-38,cytopathic effect,,EC75,,<100 µg/mL
CC(C)Nc1nc2cc(Cl)c(Cl)cc2n1[C@H]1O[C@@H](CO)[C@H](O)[C@@H]1O,C8303,MRC-5,plaque count,,EC50,,0.54 µM
Cn1cc(C(=O)NCc2ccc(Cl)cc2)c(=O)c2cc(CN3CCOCC3)ccc21,AD169,HFF,plaque count,,EC90,,8.9 µM
CC/C=C\Cn1c(=O)sc2c(=O)[nH]c(N)nc21,TOWNE,,,,inhibition,40 µM,60%
O=C(NCc1ccc(Cl)cc1)c1c[nH]c2ccc(C#CCO)cc2c1=O,DAVIS,,virus yield,,EC90,,4.7 µM
OC[C@H]1O[C@@H](n2c(Br)nc3cc(Cl)c(Cl)cc32)[C@H](O)[C@@H]1O,R56,,virus yield,,EC50,,<3 µM
O[C@@H]1[C@H](O)CO[C@H]1n1c(Cl)nc2cc(Cl)c(Cl)cc21,TOWNE,HFF,virus yield,,EC90,,0.5 µM
Cc1ccc2ncnc(Nc3ccc(Cl)c(Cl)c3)c2c1,AD169-GFP,HFF,flow cytometry,,inhibition,10 µM,95.2%
OC[C@H]1O[C@@H](n2c(Br)nc3cc(Cl)c(Cl)cc32)[C@H](O)[C@@H]1O,TOWNE,HFF,virus yield,,EC90,,0.31 µM
Nc1ccn([C@@H]2O[C@H](CO)[C@@H](O)[C@@H]2O)c(=O)n1,,HEL,plaque count,,inhibition,0.02 µM,51.1%
C[C@H]1O[C@@H](n2c(Br)nc3cc(Cl)c(Cl)cc32)[C@H](O)[C@@H]1O,Isolate C4 mutations D344E + Q204R,HFF,virus yield,,inhibition,3 µM,90%
Nc1nc2c(ncn2COC(CO)CO)c(=O)[nH]1,AD169,HFF,virus yield,,EC90,,1.2 µM
Nc1nc2c(ncn2COC(CO)CO)c(=O)[nH]1,XBAF.4 (alaalacysarg593DEL),MRC-5,hybridisation,,EC50,,4.1 µM
Nc1ccn(C[C@H]2COP(=O)(O)CO2)c(=O)n1.O=C(O)P(=O)(O)O,PAAR,MRC-5,plaque count,,EC75,,0.93 µM
COc1cccc(N2CCN(C3=Nc4c(F)cccc4[C@H](CC(=O)O)N3c3cc(C(F)(F)F)ccc3OC)CC2)c1,GDGrP53,,plaque count,,EC50,,0.0029 µM
NC(=S)N/N=C/c1ccc(Br)cc1F,AD169,Human foreskin fibroblasts,cytopathic effect,,EC90,,>300 µM
O=C(NCc1ccc(Cl)cc1)c1c[nH]c2ccc(CCCO)cc2c1=O,AD169,,plaque count,,EC90,,2.2 µM
Nc1ncnc2c1ncn2C=C1CC1CO,VR4760 (ganciclovir-resistant),,plaque count,,EC50,,2.4 µM
COc1ccc2c(c1)c(CC(=O)O)c(C)n2C(=O)c1ccc(Cl)cc1,AD169,HFF,,,inhibition,500 µM,5%
Nc1nc2c(ncn2COC(CO)CO)c(=O)[nH]1,TOWNE,,virus yield,,EC90,,0.7 µM
CC(C)Nc1nc2cc(Cl)c(Cl)cc2n1[C@H]1O[C@@H](CO)[C@H](O)[C@@H]1O,C4 (BDCRB-resistant),HFF,virus yield,,EC90,,2.9 µM
O=C(O)P(=O)(O)O,Clinical isolates,HEL,plaque count,,EC50,,55 µM
Nc1ccn(C[C@H]2COP(=O)(O)CO2)c(=O)n1,DAVIS,MRC-5,plaque count,,EC50,,0.45 µM
O=C(NCc1ccc(Cl)cc1)c1c[nH]c2c(F)cccc2c1=O,SCH,,plaque count,,EC50,,14 µM
Nc1ccn(C[C@@H](CO)OCP(=O)(O)O)c(=O)n1,LY9725 (ganciclovir-resistant),HEL,plaque count,,EC50,,0.73 µM
Nc1nc2c(ncn2COC(CO)CO)c(=O)[nH]1,TOWNE,HFF,virus yield,,EC90,,3.2 µM
Cc1nc2ccc(CN(C)c3ccc(C(=O)N[C@@H](CCC(=O)O)C(=O)O)s3)cc2c(=O)[nH]1,,,virus yield,,inhibition,0.009 µM,90%
CSc1ncnc2c1ncn2[C@@H]1OC2COP(=O)(O)OC2[C@H]1O,,,,,MIC,,3.2 µg/mL
Brc1cccc(Nc2ncnc3ccccc23)c1,AD169,HFF,plaque count,,inhibition,3 µM,70%
Nc1nc2c(ncn2[C@@H]2C[C@H](CO)[C@H](O)[C@H]2O)c(=O)[nH]1,AD169,MRC-5,cytopathic effect,,inhibition,32 µg/mL,25%

a–b is a range or a potency band. Rows are shuffled and stem from different studies. Blank or dashed fields: not listed here. Inhibition is in % at the dose shown (toxicity tests: loss of growth or viability).